Assay results from patent US20210340224A1 (BEIJING WISDOMAB BIOTECHNOLOGY, published 2021).

T1: G protein (GCVS11) of wild-type rabies virus strain CVS-11 (rabies virus strain CVS-11, UniProt O92284 20-459)
T1 sequence: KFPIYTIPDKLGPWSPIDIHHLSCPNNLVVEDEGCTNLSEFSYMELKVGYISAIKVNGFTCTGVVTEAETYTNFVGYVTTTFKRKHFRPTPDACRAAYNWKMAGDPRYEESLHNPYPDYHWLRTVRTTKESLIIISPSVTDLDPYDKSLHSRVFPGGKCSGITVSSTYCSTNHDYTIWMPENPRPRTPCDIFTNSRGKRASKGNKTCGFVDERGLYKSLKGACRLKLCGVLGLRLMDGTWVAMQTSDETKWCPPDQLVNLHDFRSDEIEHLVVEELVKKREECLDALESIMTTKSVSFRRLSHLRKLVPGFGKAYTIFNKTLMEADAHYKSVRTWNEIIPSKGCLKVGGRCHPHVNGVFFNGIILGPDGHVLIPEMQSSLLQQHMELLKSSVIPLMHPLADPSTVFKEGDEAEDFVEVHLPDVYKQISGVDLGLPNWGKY

B1: bispecific antibody S2E3-scFv-FcH+C34m-IgG1K (bispecific antibody)
scFv: QVQLVQSGAEVKKPGSSVKVSCKASGGTYSGYTINWVRQAPGQGLEWMGGIIPIFGTANYAQRFQGRLTITADESTSTAYMELSSLRSDDTAVYFCARENLDNSGTYYYFSGWFDPWGQGTLVTVSSGGGGSGGGGSGGGGSQSALTQPRSVSGSPGQSVTISCTGTSSDLGGYDFVSWYQQHPGKAPKLMIYDATKRPSGVPDRFSGSKSGNTASLTISGLQAEDEADYYCCSYAGDYTPGVVFGGGTKLTVLASEPKSSDKTHTCPPCPAPELLGGPSVFLFPPKPKDTLMISRTPEVTCVVVDVSHEDPEVKFNWYVDGVEVHNAKTKPREEQYNSTYRVVSVLTVLHQDWLNGKEYKCKVSNKALPAPIEKTISKAKGQPREPQVCTLPPSREEMTKNQVSLSCAVKGFYPSDIAVEWESNGQPENNYKTTPPVLDSDGSFFLVSKLTVDKSRWQQGNVFSCSVMHEALHNHYTQKSLSLSPGK
heavy: not shown
light: not shown
B2: fully human monoclonal antibody C34m (antibody, V domains shown)
VH: QVQLVESGGGVVQPGRSLRLSCAASGFTFGSYGMHWVRQAPGKGLEWVATISYDGSIKDYADSVKGRFTISRDNSKNTLYLQMNSLRAEDTAVYYCAKGDRTGNLDYWGQGTLVTVSS
VL: DIQMTQSPSSLSASVGDRVTITCRASQNIRNALNWYQQKPGKAPKLLIYDASTRQSGVPSRFSGSGSGTDFTLTISSLQPEDFATYYCQQNSEFPPTFGQGTKVEIKR

Molecular target: T1, G protein (GCVS11) of wild-type rabies …
Assay: cell-based or functional assay

Binder	antibody titer by RFFIT, Average value (IU/mg)
B1	1740 IU/mg
B2	2110 IU/mg
